This is a selection; strong and weak results do not stand in their true shares. Calls of active or inactive are those of the source. Cut-off read from the data, not from the text of the source: active = inhibition above about 50%; inactive = the rest.
Each molecule was assayed against Gag-Pol polyprotein (Human immunodeficiency virus type 1 group M subtype B (isolate HXB2)) (UniProt P04585) (assay: RNase H inhibition, HIV 1 Gag Pol polyprotein, FRET biochemical assay, screening (AID 372)). Conditions: HIV-1 RT RNase H, FRET RNA/DNA substrate fluorescence; at 10 µM; active compounds read high.
`O=C(NC(SC1=NCCS1)C(Cl)(Cl)Cl)c1ccc(I)cc1` (stereo not drawn) was tested, and the inhibition was inactive: 7%.
For `CC(C)OP(=O)(OC(C)C)C(=O)c1ccc(F)cc1`, the inhibition was inactive: 10%.
`O=[N+]([O-])c1cccc(-c2no[n+]([O-])c2-c2cccc([N+](=O)[O-])c2)c1` was tested, and the inhibition was inactive: 27%.
`O=C(CF)NC(Sc1ccc(Cl)cc1)C(Cl)(Cl)Cl` (stereo not drawn) was tested, and the inhibition was inactive: 3%.
In the case of `CCCOP(=O)(OCCC)O/C(C)=C/SC#N`, the inhibition is reported as inactive: 6%.
`COC(=O)c1ccc(OP(=O)(Oc2ccc(Cl)cc2C)SCC(C)C)cc1` (stereo not drawn) was tested, and the inhibition was inactive: 9%.
In the case of `CC(C)OP(=O)(OC(C)C)C(=O)c1ccccc1Cl`, the inhibition is reported as inactive: 17%.
In the case of `Cc1ccc(SC(NC(=O)c2ccccc2)C(Cl)Cl)cc1` (stereo not drawn), the inhibition is reported as inactive: 6%.
`Cc1cc(C)nc(SC(NC(=O)c2ccccc2)C(Cl)(Cl)Cl)n1` (stereo not drawn) was tested, and the inhibition was inactive: 2%.
For `O=C(NC(Sc1ccc(Cl)cc1)C(Cl)(Cl)Cl)c1ccc([N+](=O)[O-])cc1` (stereo not drawn), the inhibition was inactive: 27%.
`COC(=O)NC(Sc1ccc(Cl)cc1)C(Cl)Cl` (stereo not drawn) was tested, and the inhibition was inactive: 0%.
`O=CNC(Sc1nc2ccccc2o1)C(Cl)(Cl)Cl` (stereo not drawn) was tested, and the inhibition was inactive: 13%.
`CCCCSP(=O)(OCC(C)C)OCC(C)C` was tested, and the inhibition was inactive: 4%.
With `CC(C)OP(=O)(OC(C)C)N1CCCCC1` the inhibition was inactive: 4%.
`CCOC(=O)NC(Sc1nc2ccccc2o1)C(Cl)(Cl)Cl` (stereo not drawn) was tested, and the inhibition was inactive: 2%.
For `CCOP(=O)(OCC)SCC(=O)NCCC(=O)O`, the inhibition was inactive: 7%.
In the case of `CCCCOP(=O)(OCCCC)SC`, the inhibition is reported as inactive: 15%.
In the case of `Cc1c2non([O-])c-2c(C)[n+](=O)[n+]1[O-]`, the inhibition is reported as inactive: 15%.
